A mixed list of measured activities; the numbers were collected in NIAID ChemDB.

Shared fields: whole-cell or culture tests; organism: HIV-1

ECn: concentration that inhibits the pathogen or its effect by n%. Blank or dashed fields: not listed here. Two numbers with a dash give a range or band. Neighbouring rows are from separate reports.

compound,read by,changes,cell line,setting,endpoint,strain or isolate,result
Cc1cc(S(=O)(=O)Nc2nc(N)nc(N3CCOCC3)n2)c(S)cc1Cl,cytopathic effect / XTT,,CEM,,EC50,RF,81.1 µM
CC(C)=CCN1c2cc(Cl)cc3[nH]c(=S)n(c23)C[C@@H]1C,,RT-L74V A98G,MT-4,,EC95,,0.8 µM
Cc1cc(S(=O)(=O)Nc2n[nH]c(Nc3ccccc3)n2)c(S)cc1Cl,cytopathic effect / XTT,,CEM,,EC50,RF,74.2 µM
CC(C)(C)OC(=O)N[C@@H](Cc1ccccc1)[C@@H](O)C[C@@H](Cc1ccc(OCC(=O)O)cc1)C(=O)N[C@H]1c2ccccc2C[C@H]1O,p24,,H9,chronic infection,EC90,IIIB,>10 µM
CC(C)(C)NC(=O)[C@@H]1CCCN1C(=O)[C@@H](O)[C@H](Cc1ccccc1)NC(=O)[C@H](CC(N)=O)NC(=O)c1cnc2ccccc2n1,p24,,CEM,,EC50,IIIB,<0.5 µM
CC(C)=CCN1Cc2cccc3[nH]c(=S)n(c23)C[C@@H]1C,microscopy,,CEM,,EC50,IIIB,0.01 µM
O=C(/C=C/c1ncc(-c2cccnc2)cn1)Nc1cc(-c2ccc3c(c2)CCCC3)[nH]n1,luminescence,WT,MT-4,,EC50,NL4-3,0.96 µM
O=S(=O)(O)c1cc(Nc2nc(Cl)nc(Nc3ccc(Nc4nc(Cl)nc(Nc5cc(S(=O)(=O)O)cc6cc(S(=O)(=O)O)c(N=Nc7ccccc7S(=O)(=O)O)c(O)c56)n4)cc3)n2)c2c(O)c(N=Nc3ccccc3S(=O)(=O)O)c(S(=O)(=O)O)cc2c1,,,MOLT-4,,EC50,IIIB,1–10 µM
Cc1cn([C@H]2C[C@H](N=[N+]=[N-])[C@@H](CO)O2)c(=O)[nH]c1=O,p24 / ELISA,,MOLT-4,,EC50,,>50 µM
CC(C)CN(C[C@@H](O)[C@H](Cc1ccccc1)NC(=O)O[C@H]1CCOC1)S(=O)(=O)c1ccc(N)cc1,,,MT-4,,EC50,IIIB,0.08 µM
CC(=O)Oc1cc(S(=O)(=O)Nc2n[nH]c(Nc3ccc(C)cc3)n2)c(S)cc1Cl,cytopathic effect / XTT,,CEM,,EC50,RF,139 µM
Cc1cn([C@H]2C[C@H](N=[N+]=[N-])[C@@H](CO)O2)c(=O)[nH]c1=O,cytopathic effect / XTT,,U-937,,EC50,IIIB,0.078 µg/mL
Cc1cc(S(=O)(=O)Nc2nnc3c4scc(C)c4ncn23)c(S)cc1Cl,cytopathic effect / XTT,,CEM,,EC50,RF,>126 µM
Cc1cn([C@H]2C[C@H](N=[N+]=[N-])[C@@H](COP(=O)(O)O)O2)c(=O)[nH]c1=O,,,CEM + CEM TK-,,EC50,IIIB,39 µM
O=c1[nH]c(=O)n([C@H]2C[C@H](F)[C@@H](CO)O2)cc1Cl,cytopathic effect,,MT-4,,EC50,IIIB,0.7 µM
CCCCCC/C=C\C/C=C\CCCCCCC(=O)O[C@H](COC(=O)CCCCCCCCCCCCCCC)COP(=O)(O)OC1[C@@H](O)[C@H](O)C(O)[C@H](O)[C@@H]1O,p24 / ELISA,,H9,,EC50,,<30 µM
O=C(Nc1cc(-c2ccc3c(c2)CCCC3)[nH]n1)c1ccc(-c2ccncc2)s1,luminescence,WT,MT-4,,EC50,NL4-3,4.37 µM
Cc1ccc(Nc2nc(NS(=O)(=O)c3cc(C)c(Cl)cc3S)n(C)n2)cc1,cytopathic effect / XTT,,CEM,,EC50,RF,>100 µM
Nc1nc2c(ncn2[C@H]2CC[C@@H](CO)O2)c(=O)[nH]1,,,CEM,,EC50,IIIB,1.3 µM
O=C(Nc1cc(-c2ccc3c(c2)CCCC3)[nH]n1)c1ccc(-c2cncnc2)s1,luminescence,K103N,MT-4,,EC50,NL4-3,1.4 µM
Nc1nc(N)c2ncn([C@H]3CO[C@@H](CO)O3)c2n1,,,PBMC,,EC50,IIIB X4,1.93 µM
CCOCn1c(Cc2ccccc2)c(C(C)C)c(=O)[nH]c1=O,,,CEM,,EC50,IIIB,0.00248 µM
C1CNCCNCCCN(CCCN2CCCNCCNCCCNCC2)CCNC1,plaque count,,MT-4,,EC50,IIIB,1.24 µM
CC(C)OP(=O)(COc1ccc(C[C@H](C[C@H](O)[C@H](Cc2ccccc2)NC(=O)OC(C)(C)C)C(=O)N[C@H]2c3ccccc3C[C@H]2O)cc1)OC(C)C,cytopathic effect / MTT,,MT-4,,EC50,IIIB,0.02 µM
Cc1ccc(S(=O)(=O)N[C@@H](CCCCN)C(=O)CCl)cc1,RT activity,,MOLT-4,,EC50,IIIB,10 µM
CC(C)(C)NC(=O)[C@@H]1CCCN1C(=O)[C@@H](O)[C@H](Cc1ccccc1)NC(=O)[C@H](CC(N)=O)NC(=O)c1cc2ccccc2[nH]1,antigen,,CEM,,EC50,IIIB,0.8 µM
O=C1Nc2ccc(Cl)cc2[C@@](C#CC2CC2)(C(F)(F)F)O1,MTT,K103N,MT-4,,EC50,IIIB,0.071 µM
O=C(/C=C/c1ncc(-c2ccccc2)cn1)Nc1cc(-c2ccc3c(c2)CCCC3)[nH]n1,luminescence,K103N,MT-4,,EC50,NL4-3,1.45 µM
Nc1cc(C(=O)O)ccc1SSc1ccc(C(=O)O)cc1N,cytopathic effect / XTT,,CEM,,EC50,RF,35.2 µM
CC(C)(C)OC(=O)N[C@@H](Cc1ccccc1)[C@@H](O)C[C@@H](Cc1ccc(OCc2nnnn2Cc2ccccc2)cc1)C(=O)N[C@H]1c2ccccc2C[C@H]1O,cytopathic effect / MTT,,MT-4,,EC50,IIIB,0.05 µM
CNC(=O)c1cc(S(=O)(=O)Nc2nncn2CC(C)C)c(S)cc1Cl,cytopathic effect / XTT,,CEM,,EC50,RF,>200 µM
CC(C)Nc1cccnc1N1CCN(C(=O)c2cc3cc(NS(C)(=O)=O)ccc3[nH]2)CC1,,,CEM,,EC50,IIIB,0.018 µM
O=[N+]([O-])c1ccccc1S(=O)(=O)c1ccccc1,,,CEM + CEM-SS,,EC50,IIIB,5.41 µM
CN(Cc1ccc(F)cc1F)c1ccc(C#N)cn1,flow cytometry,,HEK 293,pseudotyped,EC50,NL4-3,7.4 µM
O=S(=O)([O-])[O-].[O]=[V+2],p24,,HUT/CCR5 + HUT,7 d,EC50,BaL,>5 µM
CC1=NN(c2nc(N)nc(C(C)Sc3cc(Cl)c(C)cc3S(N)(=O)=O)n2)C(C)(C)C1,cytopathic effect / XTT,,CEM,,EC50,RF,>43.1 µM

3 of the rows above, restated:

compound,read by,changes,cell line,setting,endpoint,strain or isolate,result
CCOCn1c(Cc2ccccc2)c(C(C)C)c(=O)[nH]c1=O,,,CEM,,EC50,IIIB,0.00248 µM
O=C(/C=C/c1ncc(-c2cccnc2)cn1)Nc1cc(-c2ccc3c(c2)CCCC3)[nH]n1,luminescence,WT,MT-4,,EC50,NL4-3,0.96 µM
CC(C)(C)OC(=O)N[C@@H](Cc1ccccc1)[C@@H](O)C[C@@H](Cc1ccc(OCc2nnnn2Cc2ccccc2)cc1)C(=O)N[C@H]1c2ccccc2C[C@H]1O,cytopathic effect / MTT,,MT-4,,EC50,IIIB,0.05 µM